Source: paper PMC12114598, “Repositioning FDA-Approved Sulfonamide-Based Drugs as Potential Carbonic Anhydrase Inhibitors in Trypanosoma cruzi: Virtual Screening and In Vitro Studies” (Pharmaceuticals, 2025)

Experiments:
Type in all cases: cell-based, Trypanosoma cruzi
Details in all cases: CC50/IC50
[1] = tested on: T. cruzi epimastigotes, NINOA strain; test: Trypanocidal activity, epimastigotes in vitro, NINOA strain
[2] = tested on: T. cruzi blood trypomastigotes, NINOA strain; test: Trypanocidal activity, blood trypomastigotes ex vivo, NINOA strain
[3] = tested on: T. cruzi epimastigotes, A1 strain; test: Trypanocidal activity, epimastigotes in vitro, A1 strain
Source text: The selected drugs were purchased from Sigma-Aldrich without further purification. For the in vitro evaluation, the methodology proposed by Domínguez-Diaz et al. 2021 [53] against epimastigotes of T. cruzi strains NINOA (MHOM/MX/1994/NINOA) and A1 for the evaluation of candidate compounds was used. Both strains were maintained in liver-infusion tryptose (LIT) medium supplemented with 10% fetal bovine serum (FBS) and 0.1% penicillin–streptomycin. These strains were maintained by transferring 1 × 10^6 parasites/mL to fresh medium once a week. […] All compounds were initially prepared at a concentration of 10 mg/mL using dimethyl sulfoxide (DMSO) as a diluent. Serial dilutions were then performed with LIT medium until concentrations of 100 to 0.46 μg/mL of each compound were obtained. Amounts of 1 × 10^6 T. cruzi epimastigotes were grown in each well and incubated for 48 h at 28 °C in a final volume of 200 μL. DMSO was included as a negative control, and reference drugs as positive controls. At the end of the incubation period, 20 μL of resazurin solution (2.5 mM) was added to each well and incubated for 3 h. All assays were performed in triplicate, and the IC50 value was determined by probit analysis.

[4] = tested on: T. cruzi amastigotes, NINOA strain; test: Amastigote assay, NINOA strain
Protocol: Amastigote susceptibility to reference drugs was evaluated in vitro. […] The lysis solution was then replaced with Schneider’s medium followed by incubation at 28 °C for another 4 to 5 days to allow the transformation of viable amastigotes and their subsequent proliferation. Then, MTT colorimetric assays were performed. Finally, the half maximal inhibitory concentration (IC50) was determined by probit analysis. All studies were approved by the Institutional Committee for Handling and Animal Care of the Facultad de Ciencias Quimicas de la Universidad Autonoma “Benito Juarez” de Oaxaca (Register FCQ-CIP-0209243, Approved 23 September 2024) and were carried out according to Mexican guidance (NOM-062-ZOO-1999).

| SMILES | SI Epimastigote NINOA [1] | SI Trypomastigote NINOA [2] | SI Epimastigote A1 [3] | SI Amastigote NINOA [4] |
| --- | --- | --- | --- | --- |
| CC(=O)c1ccc(S(=O)(=O)NC(=O)NC2CCCCC2)cc1 [Ace, acetohexamide] | >30.7 | >4.3 | >3.8 | >4.34 |
| CCC1=C(C)CN(C(=O)NCCc2ccc(S(=O)(=O)NC(=O)N[C@H]3CC[C@H](C)CC3)cc2)C1=O [Glim, glimepiride] | 0.2 |  | 0.38 |  |
| CCCCNC(=O)NS(=O)(=O)c1ccc(C)cc1 [Tol, tolbutamide] | >23.5 | >20.4 |  | >1.3 |
